# PubChem BioAssay AID1478 (National Center for Advancing Translational Sciences (NCATS), 2009)
# By UniProt entry, the sequences of proteins in these tests, tags left out. Residues count along the entry.
# UniProt P25779, 123-467 limits assumed: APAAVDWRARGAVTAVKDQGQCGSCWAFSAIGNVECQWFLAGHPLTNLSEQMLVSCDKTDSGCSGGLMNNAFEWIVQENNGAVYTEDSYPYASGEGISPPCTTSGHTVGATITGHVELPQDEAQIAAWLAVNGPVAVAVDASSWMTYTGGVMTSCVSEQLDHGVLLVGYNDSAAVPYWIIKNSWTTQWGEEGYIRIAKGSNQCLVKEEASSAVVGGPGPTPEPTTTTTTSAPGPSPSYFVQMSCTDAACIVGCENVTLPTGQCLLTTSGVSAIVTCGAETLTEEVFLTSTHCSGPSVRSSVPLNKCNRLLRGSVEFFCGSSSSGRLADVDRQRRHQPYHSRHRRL
# The entries are a selection whose mix differs from that of the whole data set. Some structures show a salt or complex split into parts, the way the source records it. Active and inactive are the calls of the source. The call rests on the fitted dose curve; in most records, active means well fitted inhibition curve with a large enough effect; inconclusive means small, poorly fitted or top-dose-only effect; inactive means flat fitted curve, though single readings scatter.
# Target: Cruzipain (Trypanosoma cruzi) (UniProt P25779)
# Test: qHTS Assay for Promiscuous and Specific Inhibitors of Cruzain (with detergent); further: nearly all actives have a fitted effect of over 40% in size
# Settings: purified cruzain, Z-FR-AMC fluorescence, 0.01% Triton
# Method: Cruzain (3.4.22.51) is a cysteine protease from the tropical parasite Trypanosoma cruzi. Dual qHTS experiment was performed against the NCGC compound collection in order to 1) identify novel inhibitors of the enzyme and 2) profile the compound collection for promiscuous inhibitors operating via colloidal aggregation (by performing detergent-free and detergent-containing comparison screens). Cruzain was assayed by the use of fluorogenic coumarin-based substrate Z-FR-AMC: proteolytic cleavage releases AMC, whose fluorescence is measured at 360 nm excitation and 450 nm emission. Purified cruzain was supplied by the labs of Prof. James McKerrow and Brian Shoichet, UC San Francisco.
# This assay had 0.01% Triton X-100 concentration. See also releated assay "qHTS Assay for Promiscuous and Specific Inhibitors of Cruzain (without detergent)" with 0.00005% Triton X-100.
# See following references for additional details:
# Assay Provider: Shoichet, Brian; University of California, San Fancisco
# Screening Center PI: Austin, C.P.
# Screening Center: NIH Chemical Genomics Center [NCGC]
# Buffer: 100 mM Sodium Acetate, pH 5.5, 5 mM DTT, Triton X-100 concentration: 0.01%.
# Buffer in columns 3 and 4 as negative control (no enzyme).
# Substrate solution: 2 uM final concentration of Z-FR-AMC (catalog number I-1160, Bachem) dispensed throughout the plate.
# Enzyme: 1.5 nM Cruzain final concentration in columns 1, 2, 5-48. Column 1 is neutral (100% activity). Column 2 contained titration of covalent inhibitor K11777, starting concentration 1 mM, then 1:2 dilution in duplicate).
# Three uL of enzyme or buffer were dispensed to 1536-well Greiner black solid bottom plates. Compounds and controls (23 nL) were transferred via Kalypsys PinTool. The plates were incubated for 15 min at room temperature, and then 1 uL of substrate solution was added to start the reaction. The plates were immediately transferred to and read 4 times every 30 seconds for 2 min on ViewLux High-throughput CCD imager (Perkin-Elmer) using 360 nm excitation and 450 nm emission fluorescence protocol. The fluorescence intensity difference between the third and the first time points (time lapse of 60 seconds) was used to compute reaction progress.
row,SMILES,"max response, negative = inhibition"
1,O=C(OCCN1CCN(CCOCc2ccccc2)CC1)C(O)(c1ccccc1)c1ccccc1,inactive: 1.75%
2,CP(=O)(Nc1ccccc1F)Oc1ccccc1 (stereo unspecified),inactive: 0.0998%
3,CC(C)c1ccc(OP(C)(=O)Nc2ccc(SC(F)(F)F)cc2)cc1 (stereo unspecified),inactive: -9.76%
4,O=P1(Nc2nc3ccc(Cl)cc3s2)COc2ccccc2O1 (stereo unspecified),inactive: 1.1%
5,CP(=O)(Nc1ccccc1)Oc1ccc(F)cc1 (stereo unspecified),inactive: 3.71%
6,COC(=O)c1cc2c(s1)N=C(c1ccccc1)N(C)P2(=O)N1CCOCC1 (stereo unspecified),inactive: -0.686%
7,CC(=O)NC(SC(=S)N(CC(C)C)CC(C)C)C(Cl)(Cl)Cl (stereo unspecified),inactive: -19.6%
8,CN(C(=O)Cc1ccc(Cl)c(Cl)c1)[C@@H]1CCCC[C@@H]1N1CCCC1,inactive: 2%
9,CCN(CC)CCCOC(=O)C(O)(c1ccccc1)C1CCCCC1 (stereo unspecified),inactive: -0.916%
10,CCC(=O)N1C2C3N(C(=O)CC)C1C1N(C(=O)CC)C(C(N1C(=O)CC)N3C(=O)CC)N2C(=O)CC,inactive: 2.86%
11,CCOC(=O)c1ccc(NP(C)(=O)Oc2ccc(F)cc2)cc1 (stereo unspecified),inactive: -1.08%
12,CCC(C)(OO)OOC(C)(CC)OO (stereo unspecified),inactive: -4.58%
13,Cc1cccc([N+](=O)[O-])c1[N+](=O)[O-],inactive: 1.87%
14,CCOC(=O)NC(Sc1ccccc1)C(Cl)(Cl)Cl (stereo unspecified),inactive: -7.15%
15,C(Cc1nn[nH]n1)Cc1nn[nH]n1,inactive: 0.866%
16,O=C(OC1CN2CCC1CC2)c1cccc(Cl)c1 (stereo unspecified),inactive: -1.55%
17,CC(=O)NC(SC(=S)N(C)C)C(Cl)(Cl)Cl (stereo unspecified),inactive: -1.58%
18,Cc1ccc([N+](=O)[O-])c([N+](=O)[O-])c1,inactive: 7.72%
19,Cc1c([N+](=O)[O-])cccc1[N+](=O)[O-],inactive: 0.114%
20,CN(C)CCOC(=O)C(O)(c1ccccc1)C1CCCCC1 (stereo unspecified),inactive: 1.9%
21,Cc1cc([N+](=O)[O-])cc([N+](=O)[O-])c1O,inactive: -6.67%
22,[N-]=[N+]=Nc1ccc([As](=O)(O)O)cc1,inactive: 2.81%

row,SMILES,"max response, negative = inhibition"
1,COc1ccc(OP(C)(=O)Nc2cccc(Br)c2)cc1 (stereo unspecified),inactive: -1.21%
2,Cc1ccccc1NP(C)(=O)Nc1ccccc1C,inactive: 2.33%
3,CCN(CCCl)Cc1ccccc1C,inactive: -1.7%
4,[NH4+].[O-][Cl+3]([O-])([O-])[O-],inactive: 5.86%
5,C[C@@H](O)COc1ccc([As](=O)(O)O)cc1N,inactive: 2.2%
6,NNC(NN)NN.n1nc(-c2nn[nH]n2)n[nH]1,inactive: -2.63%
7,CN1CCC[C@H](OC(=O)C(c2ccccc2)c2ccccc2)C1,inactive: -0.505%
8,CP(=O)(Nc1ccc2c(c1)OCCO2)Oc1ccccc1 (stereo unspecified),inactive: 2.25%
9,CCOP(C)(=S)SCC(=O)NC(C)(CC)C(=O)O (stereo unspecified),inactive: 7.71%
10,c1nnnn1CCn1cnnn1,inactive: 5.4%
11,CCOP(=O)(CC)OCC,inactive: 0.0254%
12,CC(C)C(=O)NC(Sc1ccccc1)C(Cl)(Cl)Cl (stereo unspecified),inactive: 0.161%
13,O=P(Nc1nccs1)(c1ccccc1)c1ccccc1,inactive: 0.471%
14,CN(C)C(=O)OCCc1n(C)cc[n+]1C,inactive: 0.829%
15,O=C(CO)Nc1ccc([As](=O)(O)O)cc1,inactive: 0.804%
16,CC(=O)C1=CCCC2CCC1N2 (stereo unspecified),inactive: 2.61%
17,CC1CCN(C(=O)Oc2c(Cl)cc(Cl)c3cccnc23)CC1,inactive: -7.87%
18,CC(C)(C)c1ccc(OP(C)(=O)O)cc1,inactive: 5.01%
19,CP(=O)(Nc1ccc(Cl)cc1)Oc1ccc(F)cc1 (stereo unspecified),inactive: -3.12%
20,O=[N+]([O-])c1cccc2n[nH]nc12,inactive: -1.12%
21,CC(=O)N1C2C3N(C(C)=O)C1C1N(C(C)=O)C(C(N1C(C)=O)N3C(C)=O)N2C(C)=O,inactive: 3.73%
22,COc1ccccc1OP(C)(=O)Nc1c(C)n(C)n(-c2ccccc2)c1=O (stereo unspecified),inactive: -9.34%

row,SMILES,"max response, negative = inhibition"
1,OCCSCCO,inactive: 1.57%
2,CP(=O)(Oc1ccccc1)N1CCOC1=O (stereo unspecified),inactive: -0.643%
3,CCc1nc2c(n1)c1c(non1O)c1c2no[n+]1[O-],inactive: -1%
4,CCN(CC)CC(O)COC(=O)C(O)(c1ccccc1)C1CCCCC1 (stereo unspecified),inactive: 3.24%
5,COc1ccc(OP(C)(=O)Nc2ccc(Br)cc2)cc1 (stereo unspecified),inactive: -1.92%
6,N#[O+].[C-]#N.[C-]#N.[C-]#N.[C-]#N.[C-]#N.[Fe+2].[Na+].[Na+],inactive: -3.93%
7,CCOC(=O)c1ccc(NP(C)(=O)Oc2ccc(Cl)cc2)cc1 (stereo unspecified),inactive: -3.03%
8,CP(=O)(OC12CC3CC(CC(C3)C1)C2)OC12CC3CC(CC(C3)C1)C2,inactive: 1.74%
9,CCN(N=Nc1nonc1N)c1nonc1N,inactive: -4.48%
10,C(Cc1nn[nH]n1)c1nn[nH]n1,inactive: 0.938%
11,Cc1nc2ccc3ccccc3c2o1.O=[N+]([O-])c1cc([N+](=O)[O-])c(O)c([N+](=O)[O-])c1,inactive: -8.23%
12,[N-]=[N+]=NCC(O)CN=[N+]=[N-] (stereo unspecified),inactive: 3.3%
13,Cc1cc(SC(NC(=O)c2ccc(F)cc2)C(Cl)(Cl)Cl)ncn1 (stereo unspecified),inactive: -5.35%
14,CCOP(=O)(Nc1ccccc1)OCC,inactive: 6.97%
15,COc1ccccc1OP(C)(=O)Nc1ccc(C)c(C)c1 (stereo unspecified),inactive: 3.33%
16,CN(C(=O)Cc1ccc(Cl)c(Cl)c1)[C@H]1CCCC[C@@H]1N1CCCC1,inactive: -0.866% [middle of 6 runs]
17,COc1ccc(OP(C)(=O)Nc2ccccc2Br)cc1 (stereo unspecified),inactive: 0.179%
18,CP(=O)(Nc1ccccn1)Oc1ccccc1 (stereo unspecified),inactive: 0.465%
19,COc1ccccc1OP(C)(=O)Nc1ccc(C)cc1C (stereo unspecified),inactive: -0.0763%
20,NCC[C@@H](N)CSP(=O)(O)O,inactive: 0.594%
21,CCc1ccc(OP(C)(=O)O)cc1,inactive: 0.807%
22,Cc1c(NP(C)(=O)Oc2ccc(C(C)C)cc2)c(=O)n(-c2ccccc2)n1C (stereo unspecified),inactive: 4.73%

row,SMILES,"max response, negative = inhibition"
1,CC(C)CC(=O)NC(Sc1ccc(Cl)cc1)C(Cl)(Cl)Cl (stereo unspecified),inactive: 0.536%
2,Oc1ccccc1CNc1ccccn1,inactive: 2.97%
3,O=C(NC(Sc1ccncn1)C(Cl)(Cl)Cl)c1ccccc1 (stereo unspecified),inactive: -6.08%
4,Cc1c2non([O-])c-2c(C)[n+](=O)[n+]1[O-],inactive: -0.371%
5,COc1ccc(OP(C)(=O)Nc2ccccn2)cc1 (stereo unspecified),inactive: 4.66%
6,O=[N+]([O-])c1ccc(C[As](=O)(O)O)cc1,inactive: 2.29%
7,CN1CCCC(OC(=O)C(c2ccccc2)c2ccccc2)C1 (stereo unspecified),inactive: -0.858%
8,CN(C)CCOC(=O)C(O)(c1ccccc1)C1CCCC1 (stereo unspecified),inactive: 2.14%
9,O=[N+]([O-])[O-].[NH4+],inactive: 3.79%
10,NC(=O)Nc1cc([As](=O)(O)O)cc(I)c1O,inactive: 1.55%
11,O=C(OC1CN2CCC1CC2)C12CC3CC(CC(C3)C1)C2 (stereo unspecified),inactive: 5.39%
12,Cc1c2c(nc3ccccc13)SC(C(Cl)Cl)C2 (stereo unspecified),inactive: -9.32%
13,CCN(CC)C(=S)SC(NC=O)C(Cl)(Cl)Cl (stereo unspecified),inactive: -2.73%
14,COc1ccc(OP(C)(=O)Nc2cccc(F)c2)cc1 (stereo unspecified),inactive: 7.52%
15,O=[N+]([O-])c1cc([N+](=O)[O-])c(-c2ccn[nH]2)s1,inactive: -8.07%
16,[N-]=[N+]=NCC(N)=O,inactive: -1.11%
17,COc1ccccc1OP(C)(=O)Nc1ccc(C)cc1 (stereo unspecified),inactive: -3.23%
18,Cc1ccc(NP(C)(=O)Oc2ccccc2)c(C)c1 (stereo unspecified),inactive: 2.6%
19,CCOC(=O)c1ccc(NP(C)(=O)Oc2ccccc2)cc1 (stereo unspecified),inactive: -3.52%
20,O=[As]c1ccc(S(=O)(=O)NCCO)cc1 (stereo unspecified),inactive: -4.38%
21,ClCCSc1nnc(-c2cccnc2)o1,inactive: -1.48%
22,Cc1ccc2nc3c(c(C)c2c1)CC(C(Cl)Cl)S3 (stereo unspecified),inactive: -9.98%

row,SMILES,"max response, negative = inhibition"
1,CC(C)(C)c1ccc(OP(C)(=O)Nc2ccc(SC(F)(F)F)cc2)cc1 (stereo unspecified),inactive: -9.24%
2,CP(=O)(Nc1ccccc1Br)Oc1ccccc1 (stereo unspecified),inactive: -2.76%
3,CN(N=O)C(=N)N[N+](=O)[O-],inactive: 5.29%
4,CP(=S)(Nn1cnnc1)Oc1ccccc1 (stereo unspecified),inactive: -0.65%
5,Cc1cc(SC(NC(=O)c2ccccc2)C(Cl)(Cl)Cl)nc(C(C)C)n1 (stereo unspecified),inactive: -1.31%
6,N1=C(c2nnc(-c3nn[nH]n3)nn2)NNN1,inactive: -3.45%
7,CP(=O)(Nc1ccccn1)Oc1ccc(Cl)cc1 (stereo unspecified),inactive: 3.57%
8,CCC(C)N(CC(C)C)C(=S)SC(NC(C)=O)C(Cl)(Cl)Cl (stereo unspecified),inactive: -14.4%
9,CCOC(=O)c1ccc(NP(C)(=O)Oc2ccc(OC)cc2)cc1 (stereo unspecified),inactive: 0.585%
10,CCOP(C)(=S)SCC(=O)NC(C)C(=O)O (stereo unspecified),inactive: 6.98%
11,O=C(COc1ccccc1)OC1CN2CCC1CC2 (stereo unspecified),inactive: 1.1%
12,CP(=O)(NC(=O)Nc1ccccc1)Oc1ccccc1 (stereo unspecified),inactive: 3.38%
13,O=C(O)[C@@H](O)c1ccc([As](=O)(O)O)cc1,inactive: 2.41%
14,Cc1cc(C)cc(OP(C)(=O)Nc2ccc(SC(F)(F)F)cc2)c1 (stereo unspecified),inactive: -13.8%
15,COP1(=S)c2c(C)nn(CCC#N)c2N=C(c2ccc(F)cc2)N1C (stereo unspecified),inactive: 4.18%
16,Cc1cccc(C)c1OP(C)(=O)Nc1ccc(SC(F)(F)F)cc1 (stereo unspecified),inactive: -12.2%
17,[Au].[Au].c1ccc([PH+](c2ccccc2)c2ccccc2)cc1.c1ccc([PH+](c2ccccc2)c2ccccc2)cc1.n1n[nH]c(-c2nnn[nH]2)n1,inactive: 4.09%
18,Cc1nc2ccc3ccccc3c2s1.O=[N+]([O-])c1cc([N+](=O)[O-])c(O)c([N+](=O)[O-])c1,inactive: -18.2%
